Test system: clinically relevant resistant bacterial isolate S. Aureus
Assay: Growth inhibition by cis/trans combinations, resistant isolate S. Aureus
Type: cell-based
Settings: Trans-compound 0.5 μg/ml, Cis-compound 0 μg/ml; MIC(trans alone)/MIC(trans in trans-cis mixture) × 100
Experimental: Cell growth was tested using the Minimal Inhibitory Concentration (MIC) susceptibility tests by use of the microdilution broth method in accordance to the NCCLS Guidelines (NCCLS Guidelines, Methods for Dilution Antimicrobial Susceptibility Tests for Bacteria That Grow Aerobically; Approved Standard, Sixth Edition, Volume 23; Number 2). The minimum inhibitory concentration (MIC), is defined ad the lowest concentration of drug which inhibits growth of the test organism, in the sense that no visible growth is detected (total inhibition of growth). In example 2 MIC of the compounds used on fungal microorganisms was determined from the IC90 measurements according to NCCLS Guidelines.
A log phase culture of bacteria was diluted with fresh pre-warmed Mueller-Hinton medium and adjusted to a defined OD at 600 nm in order to give a final concentration of 1×10^4-5 bacteria/ml medium. The bacterial culture was transferred to microtiter-plates and culture was added to each well. Drug was added to the bacterial culture in the wells as two-fold dilution series of drug in order to give final concentrations ranging from 0.03 to 128 μg/ml. Trays were incubated at 37° C. by shaking in a robot analyzer, PowerWavex, software KC^4′ Kebo.Lab, Copenhagen, for 16 h and optical densities were measured at 600 nm during the incubation time in order to record growth curves. […]

Clc1ccc2c(c1)/C(=C/CCN1CCNCC1)c1ccccc1S2 [N-dealkyl-trans-clopenthixol, trans-1-(3-(2-chloro-thioxanthen-9-ylidene)propyl)piperazine]
Effect index (trans-compound): 100

Source: US20100113430A1, “THIOXANTHENE DERIVATES USEFUL TO TREAT INFECTIOUS DISEASES” (BKG PHARMA APS, priority 2007, published 2010)
